The values below come from paper PMC10384657 (Virus Research, 2023).

The nature of the series: general procedure: Fmoc solid-phase peptide synthesis; Tentagel S RAM resin (loading 0.23 mmol/g); DIC/OxymaPure. The note with it: whole synthesis, 215 nm.

For the substance ^888FGAGAALQIPFAMQM^902, the “final HPLC purity” value is given as over 95%.

As for ^888FGAGAALQIPFAMQMAARF^906, the “final HPLC purity” value was determined as 95%.

On to ^888FGAGAALQIPFAMQAAYRF^906, for which the “final HPLC purity” value was found to be 93%.

With ^888FGAGAALAIPFAMQMAYRF^906, the “final HPLC purity” value is reported as over 95%.

With ^888FGAGAALQIPFAMQMAAAF^906, the “final HPLC purity” value is reported as 93%.

As to ^888FGAGAALQIPFAMQMAYRA^906, the “final HPLC purity” value is over 95%.

On to ^888FGAGAALQIPFAAQMAYRF^906, for which the “final HPLC purity” value is over 95%.

In the case of ^894LQIPFAMQMAYRF^906, the “final HPLC purity” value was over 95%.

In the case of ^890AGAALQIPFAMQMAYRF^906, the “final HPLC purity” value is given as over 95%.

As for ^884SGWTFGAGAALQIPFAMQM^902, the “final HPLC purity” value is listed as over 95%.

For the substance ^886WTFGAGAALQIPFAMQMAY^904, the “final HPLC purity” value is over 95%.

On to ^888FGAGAALQIPFAMAMAYRF^906, for which the “final HPLC purity” value is reported as 95%.

^888FGAGAALQIPFAMQMAYRF^906: the “final HPLC purity” value is recorded as 95%.

Regarding ^888FGAGAALQIPAAMQMAYRF^906, the “final HPLC purity” value is on record as over 95%.

Regarding ^884SGWTFGAGAALQIPFAM^900, the “final HPLC purity” value was 90%.

Regarding ^888FGAGAALQAPFAMQMAYRF^906, the “final HPLC purity” value is listed as over 95%.

Turning to ^888FGAGAALQIAFAMQMAYRF^906, the “final HPLC purity” value is reported as 90%.

Regarding ^898FAMQMAYRF^906, the “final HPLC purity” value is on record as over 95%.

For the substance ^888FGAGAAAQIPFAMQMAYRF^906, the “final HPLC purity” value was over 95%.

For ^888AGAGAALQIPFAMQMAYRF^906, the “final HPLC purity” value is recorded as over 95%.
